The data set is described as follows: general procedure: Boc solid-phase peptide synthesis; benzhydrylamine (BHA) resin; symmetric anhydride procedure. Conditions: whole synthesis.

HTLV-III env (487-511)-Cys-NH2: the crude mass is on record as 435 mg and the isolated mass was 31.1 mg.

HTLV-III env Cys-(500-511)-NH2 displayed a crude mass of 741 mg and an isolated mass of 46.1 mg.
